Measured values from several laboratories, pooled; numbers as filed in NIAID ChemDB.

Common to all: tests on isolated targets; organism: Hepatitis C virus; target: Nonstructural protein 5B; endpoint: IC50

An empty or dashed field is not shown. Lines come from different laboratories, so protocols vary. ICn is the concentration giving n% inhibition. a–b is a range or a potency band.

smiles	method	strain or isolate	value
Cc1cc(C)cc(-c2ccc(C=C3SC(=S)N(c4ccc(C(=O)O)cc4)C3=O)o2)c1			≤1 µM
CNC(=O)c1c(-c2ccc(F)cc2)oc2cc(C#N)c(OC)cc12			≤0.5 µM
O=C(O)CCN1C(=O)C(=Cc2ccc(-c3ccccc3C(F)(F)F)o2)SC1=S			≤1 µM
O=C(Cc1ccccc1)C1C(=O)CC(CCc2cccc(Cl)c2)(C2CCCC2)OC1=O			10–50 µM
CCN(c1cc2oc(-c3ccc(F)cc3)c(C(=O)NC)c2cc1OC)S(C)(=O)=O			≤0.5 µM
Cc1cc(C)cc(-c2ccc(C=C3SC(=S)N(CCC(=O)O)C3=O)o2)c1			≤1 µM
CCc1cc2c(C(=O)NC)c(-c3ccc(F)cc3)oc2cc1C(C)(C)O			≤0.5 µM
COc1c(-c2ccc3cc(NS(C)(=O)=O)ccc3c2)cc(-n2ccc(=O)[nH]c2=O)cc1C(C)(C)C	nucleotide incorporation	GT 2a#1	16.4 µM
COc1ccc(CCC2(C3CCCC3)CC(O)=C(Sc3ccc(O)cc3)C(=O)O2)cc1Cl			<1 µM
CNC(=O)c1c(-c2ccc(F)cc2)oc2cc(S(=O)(=O)N3CCCC3)c(OC(C)C)cc12			≤0.5 µM
O=C(O)c1ccc(N2C(=O)C(=Cc3ccc(-c4ccccc4[N+](=O)[O-])o3)SC2=S)cc1			≤1 µM
Cc1cc(SC2=C(O)CC(CCc3ccco3)(C(C)C)OC2=O)c(C(C)(C)C)cc1CO			1–10 µM
CCN(c1cc2oc(-c3ccc(F)cc3)c(C(=O)NC)c2cc1OC(C)C)S(C)(=O)=O			≤0.5 µM
O=Cc1ccc(C=C2SC(=S)N(c3ccc(C(=O)O)cc3)C2=O)o1			≤1 µM
COc1cc(OC)c(CCC2(C3CCCC3)CC(O)=C(SC3=NCCCN3)C(=O)O2)cc1Cl			<1 µM

Again, the opening 2 rows:

smiles | method | strain or isolate | value
Cc1cc(C)cc(-c2ccc(C=C3SC(=S)N(c4ccc(C(=O)O)cc4)C3=O)o2)c1 |  |  | ≤1 µM
CNC(=O)c1c(-c2ccc(F)cc2)oc2cc(C#N)c(OC)cc12 |  |  | ≤0.5 µM